A mixed list of measured activities; the numbers were collected in NIAID ChemDB.

All rows: growth or infection tests; organism: Human cytomegalovirus; cells: HEL; endpoint: EC50

ECn: concentration that inhibits the pathogen or its effect by n%.

| smiles | strain or isolate | read by | result |
|---|---|---|---|
| Cc1ccn2c(CSCc3ccccc3)c(C(C)(C)C)nc2c1 | AD169 | cytopathic effect | 1 µg/mL |
| Nc1nc2c(ncn2CCCCO)c(=O)[nH]1 | 9 isolates | antigen | 150 µM |
| Nc1nc(N)c2nnn(C[C@@H](CO)OCP(=O)(O)O)c2n1 | DAVIS | cytopathic effect | >100 µg/mL |
| CC(=O)O[C@@H](CC/C(C)=C/[C@@H]1OCC(C)=C1CC[C@H](C)O)[C@@]1(C)CCC(=O)O1 |  | cytopathic effect | 5 µg/mL |
| Nc1nc2c(ncn2CC[C@@H](O)CO)c(=O)[nH]1 | AD169 |  | 285 µM |
| Nc1ccn(C[C@@H](CO)OCP(=O)(O)O)c(=O)n1 | AD169 | plaque count | 0.25 µg/mL |
| Cc1cn(CC[C@H](O)CCO)c(=O)[nH]c1=O | AD169 | cytopathic effect | >400 µg/mL |
| CC(C)(C)[Si](OC[C@H]1C[C@@H](Cn2cnc3c(Cl)nc(N)nc32)c2cn(Cc3ccccc3)nc21)(c1ccccc1)c1ccccc1 | AD169 |  | 0.44 µM |
| Nc1ncnc2c1ncn2[C@@H]1C=C(CO)[C@@H](O)[C@H]1O | DAVIS | cytopathic effect | 0.4 µg/mL |
| CCCCCCCC(=O)NCC#Cc1cn([C@H]2C[C@H](O)[C@@H](COP(=O)(N[C@@H](C)C(=O)OCc3ccccc3)Oc3ccccc3)O2)c(=O)[nH]c1=O | DAVIS | cytopathic effect | >100 µM |
| Nc1nc(N)c(Cl)c(OCCOCP(=O)(O)O)n1 | DAVIS | cytopathic effect | >600 µM |
| Cc1ccn2c(CSCc3ccccc3)c(-c3cccnc3)nc2c1 | AD169 | cytopathic effect | 10 µg/mL |
| CCCCCCCCC#Cc1c[nH]c(=O)[nH]c1=O | DAVIS | cytopathic effect | >400 µM |
| Nc1cc(OCCOCP(=O)(O)O)nc(N)n1 | AD169 | cytopathic effect | >190 µM |
| Nc1ccn(C[C@@H](CO)OCP(=O)(O)O)c(=O)n1 | AD169 | plaque count | 0.28 µM |
| Cc1ccn2c(C(SCCc3ccccc3)SCCc3ccccc3)cnc2c1 | AD169 |  | 3.1 µM |
| Nc1ncnc2c1nnn2[C@@H]1C=C(CO)[C@@H](O)[C@H]1O | DAVIS | plaque count | 0.7 µg/mL |
| COC(=O)CC[C@@H]1C[C@H]2CCC[C@](NC(=O)c3ccccc3C(=O)N[C@@]34CCC[C@@H](C[C@H](CCC(=O)OC)C3)C4)(C2)C1 | AD169 | plaque count | >20 µg/mL |
| Cc1ccn2c(CSCCO)cnc2c1 | AD169 | plaque count | >40 µg/mL |
| Cc1ccn2c(CSCc3ccccc3)c(C3CC3C)nc2c1 | AD169 | cytopathic effect | 2 µg/mL |
| CC(C)(C)[Si](C)(C)OC[C@H]1O[C@@H](n2ccc3nc(CN)cn3c2=O)[C@H](O[Si](C)(C)C(C)(C)C)[C@@H]1O[Si](C)(C)C(C)(C)C | AD169 | cytopathic effect | 7.3 µM |
| CCCCCCCC/C=C/CCCCCCCC(=O)O | DAVIS | cytopathic effect | >100 µM |
| CCCCCC#Cc1c[nH]c(=O)[nH]c1=O | DAVIS | cytopathic effect | >80 µM |
| CO[C@H](CO)[C@@H](O)CCn1cnc2c(=O)[nH]c(N)nc21 | AD169 | cytopathic effect | >400 µg/mL |
| Cc1cn([C@@H]2OC(O[Si](C)(C)C(C)(C)C)C3(OS(=O)(=O)C=C3NCCC(=O)OCc3ccccc3)C2O[Si](C)(C)C(C)(C)C)c(=O)n(C)c1=O | AD169 | plaque count | >400 µM |
| Cc1cccn2c(C3OCCS3)cnc12 | DAVIS |  | 63 µM |
| CO[C@H](CO)[C@@H](O)CCn1ccc(N)nc1=O | AD169 | cytopathic effect | >400 µg/mL |
| Nc1nc2c(ncn2COC(CO)CO)c(=O)[nH]1 | DAVIS | cytopathic effect | 3.8 µM |
| Nc1cc2c(=O)c(C(=O)O)cn(C3CC3)c2cc1N1CCN(c2nc3ccccc3s2)CC1 | DAVIS | plaque count | 0.0076 µg/mL |
| CC1=C[C@H](n2cnc3c(N)ncnc32)C[C@@]1(CO)c1ccccc1 | AD169 | cytopathic effect | >100 µg/mL |
| Nc1nccc2c1ncn2C[C@@H](CO)OCP(=O)(O)O | AD169 | flow cytometry | 1.14 µM |
| CC1=C[C@H](n2ccc(N)nc2=O)C[C@@]1(CO)c1ccccc1 | AD169 | cytopathic effect | >100 µg/mL |
| CC(C)(C)c1nc2ccccn2c1NC(=O)Nc1ccccc1 | AD169 | cytopathic effect | >50 µg/mL |
| NC(=O)c1c(Cl)c(-c2cccnc2)n2c1CCCC2 | LY9725 (ganciclovir-resistant) | plaque count | 0.0051 µM |
| C=CCO[C@@H]1[C@@H](OCC=C)[C@H](Cc2ccccc2)O[C@@H]2CO[C@@H](c3ccccc3)O[C@@H]12 | AD169 | plaque count | 1.1 µg/mL |
| C=CCOc1cc(O)c2c(=O)c3cc(OC)ccc3[nH]c2c1 |  | plaque count | <2.5 µM |
| N#CC1C(c2ccc(Cl)cc2)Nc2ccccc2S1(=O)=O | LY9990 (ganciclovir-resistant) | cytopathic effect | 2.7 µg/mL |
| Cc1ccn2c(CSCc3ccccc3)c(C(F)(F)F)nc2c1 | DAVIS | cytopathic effect | 1.5 µg/mL |
| CCCCCCCC#Cc1cn(S(=O)(=O)c2ccc(C)cc2)c(=O)[nH]c1=O | AD169 | cytopathic effect | >80 µM |
| N#CCCC12CC3CC(C1)CC(N1C(=O)c4ccccc4C1=O)(C3)C2 | DAVIS | plaque count | >100 µg/mL |
| Nc1nc2c(ncn2[C@@H]2O[C@H](CO)[C@H]2CO)c(=O)[nH]1 | AD169 | plaque count / crystal violet | 0.062 µg/mL |
| Cc1cccn2c(C3SCCS3)cnc12 | AD169 |  | 17 µM |
| CC#CC=C[C@H]1O[C@@H](n2cnc3c(N)ncnc32)[C@H](O)[C@@H]1O | AD169 |  | 50 µM |
| N#CC1C(c2ccc(Cl)cc2)Nc2c(ccn2Cc2ccccc2)S1(=O)=O | DAVIS | cytopathic effect | >5 µg/mL |
| O=C1c2ccccc2[C@@]2(O)[C@H]3C4CC5CC(C4)CC3(C5)CN12 | AD169 | plaque count | >20 µg/mL |
| C[C@@H](NC(=O)C1(Cc2ccccc2)CCN1C(=O)OCc1ccccc1)C(N)=O | DAVIS | cytopathic effect | >400 µM |
| CCOC(=O)/C=C/C=C/[C@H]1O[C@@H](n2ccc(=O)[nH]c2=O)[C@H](O)[C@@H]1O | AD169 |  | >120 µM |
| Nc1nc2c(ncn2COC(CO)CO)c(=O)[nH]1 | DAVIS | plaque count | 0.62 µg/mL |
| Nc1nc2ncn(CCOCP(=O)(O)O)c2c(=O)[nH]1 | DAVIS | plaque count | 1.5 µg/mL |
| Cc1oc(NC(=O)C(F)(F)F)c(S(=O)(=O)c2ccc(Cl)cc2)c1C | DAVIS | cytopathic effect | 10 µg/mL |
| O=C1c2ccccc2C(=O)N1CC12CC3CC(CC(O)(C3)C1)C2 | DAVIS | plaque count | >100 µg/mL |
| CN(C)CC1CCC(C23CC4CC(CC(C4)C2)C3)[C@@H]1c1ccccc1 |  | cytopathic effect | >40 µg/mL |
| O=C1c2cccc([N+](=O)[O-])c2C(=O)N1C12CC3CC(CC(C3)C1)C2 | DAVIS | plaque count | >100 µg/mL |
| Cn1cc(C(=O)O)c(=O)c2cc(N)c(N3CCN(c4cccc(C(F)(F)F)c4)CC3)cc21 | DAVIS | plaque count | 0.86 µg/mL |
| Nc1cc(OC[C@H](CO)OCP(=O)(O)O)nc(N)n1 | DAVIS | cytopathic effect | 120 µM |
| Cc1nc2ccccn2c1NC(=S)Nc1ccccc1 | AD169 | cytopathic effect | 13 µg/mL |
| O=C1c2ccccc2[C@@]2(O)C3C4C[C@H]5CC(C[C@H]3C5)C4N12 | DAVIS | plaque count | 10 µg/mL |
| Cc1ccn2c(CSCc3ccccc3)c(-c3ccncc3)nc2c1 | AD169 | cytopathic effect | 3.2 µg/mL |
| CCCCCCC#Cc1c[nH]c(=O)[nH]c1=O | DAVIS | cytopathic effect | >80 µM |

7 of the rows above, restated:

Nc1nc2c(ncn2CCCCO)c(=O)[nH]1 ; strain or isolate: 9 isolates ; read by: antigen ; result: 150 µM
CCCCCC#Cc1c[nH]c(=O)[nH]c1=O ; strain or isolate: DAVIS ; read by: cytopathic effect ; result: >80 µM
CCCCCCC#Cc1c[nH]c(=O)[nH]c1=O ; strain or isolate: DAVIS ; read by: cytopathic effect ; result: >80 µM
O=C1c2ccccc2[C@@]2(O)[C@H]3C4CC5CC(C4)CC3(C5)CN12 ; strain or isolate: AD169 ; read by: plaque count ; result: >20 µg/mL
CO[C@H](CO)[C@@H](O)CCn1cnc2c(=O)[nH]c(N)nc21 ; strain or isolate: AD169 ; read by: cytopathic effect ; result: >400 µg/mL
Cc1ccn2c(CSCc3ccccc3)c(-c3cccnc3)nc2c1 ; strain or isolate: AD169 ; read by: cytopathic effect ; result: 10 µg/mL
Cn1cc(C(=O)O)c(=O)c2cc(N)c(N3CCN(c4cccc(C(F)(F)F)c4)CC3)cc21 ; strain or isolate: DAVIS ; read by: plaque count ; result: 0.86 µg/mL

Lines come from different laboratories, so protocols vary. An empty or dashed field is not shown.